Results of unrelated studies side by side (data: NIAID ChemDB).

All rows: tests in culture; species: HIV-1

ECn is the concentration giving n% inhibition of infection, replication or growth.

structure,strain or isolate,cells,changes,conditions,endpoint,method,value
Cc1cc(C#Cc2ccccc2)cc(C)c1Oc1ccnc(NC2CCN(Cc3ccc(S(N)(=O)=O)cc3)CC2)n1,IIIB,MT-4,L100I,-,EC50,MTT,>0.766 µM
Cc1cn([C@H]2C[C@H](N=[N+]=[N-])[C@@H](CO)O2)c(=O)[nH]c1=O,SF162,Monocytes + Monocyte,-,-,EC50,p24 / ELISA,0.0011 µg/mL
CC(=O)O[C@@]12C[C@@H](C)[C@@]3(O)[C@@H](C=C(CO)C[C@]4(O)C(=O)C(C)=C[C@@H]34)[C@@H]1C2(C)C,IIIB,MT-4,-,-,EC50,cytopathic effect / MTT,0.09 µg/mL
Cc1ccccc1CN1CCC(N=C2C=C(Cc3ccc(Cl)cc3Cl)NS(=O)(=O)N2)CC1,IIIB,MT-4,-,-,EC50,MTT,24.18 µM
Nc1ccn([C@@H]2CC[C@H](CO)O2)c(=O)n1,IIIB,U-937,-,-,EC50,-,0.1 µM
Cc1cc(/C=C/c2ccccc2)cc(C)c1Oc1ccnc(Nc2ccc(C#N)cc2)n1,IIIB,MT-4,K103N,-,EC50,MTT,0.059 µM
Cc1c(Sc2ccccc2)n(COCCO)c(=O)[nH]c1=O,IIIB,HuT-78 + HUT 78,-,-,EC50,antigen,5.2 µM
O=C(NCc1ccc(F)cc1)c1nc(Cc2ccccc2)[nH]c(=O)c1O,-,MT-4,-,50% human serum,EC95,p24,>10 µM
C/C(=C(/CCOC(=O)C(C)C)SS/C(CCOC(=O)C(C)C)=C(\C)N(C=O)Cc1cnc(C)nc1N)N(C=O)Cc1cnc(C)nc1N,RF,U-937/HIV-1(RF) + U-937,-,-,EC50,p24,>50 µM
NNC(=O)NN1C(=O)c2cc(S(=O)(=O)[O-])cc3c(N)c(S(=O)(=O)[O-])cc(c23)C1=O,LAV,PBMC,-,-,EC50,trypan blue,>100 µM
CC(C)Nc1cccnc1N1CCN(C(=O)c2cc3cc(NS(C)(=O)=O)ccc3[nH]2)CC1,IIIB,MT-4,-,-,EC50,MTT,0.66 µM
Cc1nn(C)c2ncc(CN3CCN(C[C@@H](O)C[C@@H](Cc4ccccc4)C(=O)N[C@H]4c5ccccc5C[C@H]4O)[C@H](C(=O)NC(C)(C)C)C3)c(Cl)c12,IIIB,MT-4,-,-,EC50,p24,<0.0125 µM
CC(C)(C)NC(=O)[C@@H]1C[C@@H]2CCCC[C@@H]2CN1C[C@@H](O)[C@H](Cc1ccccc1)NC(=O)[C@@H](NC(=O)c1ccccc1)C(C)(C)S(C)(=O)=O,-,-,-,-,EC50,-,0.03 µM
CCC1=C(CC)c2cc3[n-]c(cc4[n-]c(cc5nc(cc1n2)C(CC)=C5CC)c(CC)c4CC)c(CC)c3CC.[O]=[V+2],BaL,HUT/CCR5 + HUT,-,7 d,EC50,p24,>5 µM
Cc1cn([C@H]2C[C@H](N=[N+]=[N-])[C@@H](COP(=O)(O)O)O2)c(=O)[nH]c1=O,-,CEM + CEM TK-,-,-,EC50,MTT,10 µM
Cc1ccccc1CN1CCC(N=C2C=C(Cc3cccc4ccccc34)NS(=O)(=O)N2)CC1,RES056,MT-4,RT-K103N Y181C,-,EC50,MTT,>107 µM
Cc1cc(C#Cc2cccc(N)c2)cc(C)c1Oc1ccnc(Nc2ccc(C#N)cc2)n1,IIIB,MT-4,L100I,-,EC50,MTT,0.279 µM
Cc1ccc(C(=O)Nc2ccc(S(=O)(=O)O)c3cc(S(=O)(=O)O)cc(S(=O)(=O)O)c23)cc1NC(=O)c1cccc(NC(=O)Nc2cccc(C(=O)Nc3cc(C(=O)Nc4ccc(S(=O)(=O)O)c5cc(S(=O)(=O)O)cc(S(=O)(=O)O)c45)ccc3C)c2)c1,LAV,-,-,-,EC50,RT activity,250 µM
CCC(C)Nc1nc(N)nc2c1ncn2CCOCP(=O)(O)O,IIIB,MT-4,-,-,EC50,cytopathic effect / MTT,1.97 µg/mL
Cc1c(-c2cnccn2)ssc1=S,IIIB,PBMC,-,-,EC50,MTT,11 µM
O=C(O)P(=O)(O)O,MN,HT4 + HT4-6C,-,-,EC50,plaque count,133 µM
CC(C)(C)NC(=O)[C@@H]1CN(C(=O)c2cnc3occc3c2)CCN1C[C@@H](O)C[C@@H](Cc1ccccc1)C(=O)N[C@H]1c2ccccc2C[C@H]1O,IIIB,MT-4,-,-,EC50,p24,<0.1 µM
Cc1ccc(S(=O)(=O)N(CC(C)C)C[C@@H](O)[C@H](Cc2ccccc2)NC(=O)O[C@H]2CO[C@H]3OCC[C@H]32)cc1,IIIB,MT-2,D437N L441P,-,EC50,p24 / ELISA,0.008 µM
Cc1cc(C#Cc2cccc(N)c2)cc(C)c1Oc1ccnc(NC2CCN(Cc3cccc(C(N)=O)c3)CC2)n1,IIIB,MT-4,K103N,-,EC50,MTT,0.143 µM
CCO/N=C(\c1ccc(Br)cc1)C1CCN(C2(C)CCN(C(=O)c3c(C)cc[n+]([O-])c3C)CC2)CC1,R5-16(PR-A71T) R5 clinical isolate,PBMC,PR-A71T,-,EC50,p24,0.0012 µM
CC(C)(C)NC(=O)[C@@H]1CN(Cc2cc3cc(CO)cnc3o2)CCN1C[C@@H](O)C[C@@H](Cc1ccccc1)C(=O)N[C@H]1c2ccccc2C[C@H]1O,IIIB,MT-4,-,-,EC50,p24,<0.0625 µM
Cc1cc(N)c(C)c2c1[nH]c1cc(Cl)ccc12,NL4-3,TZM-bl,-,-,EC50,luminescence,9.3 µM
Cc1cn([C@H]2C[C@H](N=[N+]=[N-])[C@@H](CO)O2)c(=O)[nH]c1=O,RF,C8166,-,-,EC50,p24,0.04 µM
Nc1nc(NC2CC2)c2ncn([C@H]3C=C[C@@H](CO)C3)c2n1,Recombinant,HeLa,RT-A62T V118I M184V,-,EC50,luciferase,4.94 µM
Cc1cn([C@H]2C[C@H](N=[N+]=[N-])[C@@H](CO)O2)c(=O)[nH]c1=O,IIIB,MT-4,-,-,EC50,MTT,0.0071 µM
CC(C)(C)NC(=O)[C@@H]1C[C@@H]2CCCC[C@@H]2CN1C[C@@H](O)[C@H](Cc1ccccc1)NC(=O)[C@@H](NC(=O)COc1cccnc1)C(C)(C)S(C)(=O)=O,-,-,PR-K20R M46I L63P V82T I84V,-,EC50,-,0.012 µM
C1CNCCNCCCN(CCCN2CCCNCCNCCCNCC2)CCNC1,clinical isolate A012C AZT-resistant,MT-4,-,-,EC50,p24 / ELISA,0.37 µM
COC(=O)N[C@H](C(=O)N[C@@H](Cc1ccccc1)[C@@H](O)CN(Cc1ccc(-c2ccccn2)cc1)NC(=O)[C@@H](NC(=O)OC)C(C)(C)C)C(C)(C)C,IIIB,MT-2,ATV-P36 atazanavir-resistant mutant,-,EC50,ATP,>0.67 µM
Nc1c(S(=O)(=O)O)cc2c3c(cc(S(=O)(=O)O)cc13)C(=O)N(NC(=O)N/N=C\c1ccc(-c3ccc(C=O)cc3)cc1)C2=O,LAV,PBMC,-,-,EC90,trypan blue,93.4 µM
COc1ccc(CN2CCC(N=C3C=C(Cc4ccc(Cl)cc4Cl)NS(=O)(=O)N3)CC2)cc1,RES056,MT-4,RT-K103N Y181C,-,EC50,MTT,>109 µM
Nc1nc(=O)n([C@@H]2CC[C@H](CO)O2)cc1F,IIIB,MT-4,-,-,EC50,cytopathic effect / MTT,2.35 µM
Cn1c2ccccc2c2c1cc(C#N)c(=O)n2-c1ccc([N+](=O)[O-])cc1,NL4-3 WT,HeLa,-,-,EC50,luciferase,0.036 µM
Cc1cn([C@H]2C[C@H](N=[N+]=[N-])[C@@H](CO)O2)c(=O)[nH]c1=O,LAV,PBMC,-,-,EC90,RT activity,0.0158–0.024 µM
Cc1cccc(CN2C(=O)N(Cc3cccc(C)c3)[C@H](Cc3ccccc3)[C@H](O)[C@@H](O)[C@H]2Cc2ccccc2)c1,RF,MT-2,-,-,EC50,hybridisation,<2.4 µM
Nc1ccn([C@H]2O[C@@H](CO)C=C2F)c(=O)n1,3TC-resistant (RT M184V),PBMC,RT-M184V,-,EC90,-,>100 µM
CN1CCOCC1c1nc(C(=O)NCc2ccc(F)cc2)c(O)c(=O)[nH]1,-,MT-4,-,10% FBS,EC50,p24,<0.03 µM
C[C@@H](Cn1cnc2c(=O)[nH]c(N)nc21)OCP(=O)(O)O,-,-,-,-,EC50,-,17 µM
CC[C@H](C)[C@H](NC(=O)c1ccccc1SSc1ccccc1C(=O)N[C@H](C(=O)O)[C@@H](C)CC)C(=O)O,LAV-Bru,MT-4,-,-,EC50,p24 / RT activity,2.5 µM
COc1cc(-c2c3nc(c(-c4cc(OC)c(OC)c(OC)c4)c4ccc([n-]4)c(-c4cc(OC)c(OC)c(OC)c4)c4ccc([n-]4)c(-c4cc(OC)c(OC)c(OC)c4)c4nc2C=C4)C=C3)cc(OC)c1OC.[O]=[V+2],BaL,HUT/CCR5 + HUT,-,7 d,EC50,p24,<5 µM
CN(C)C(c1ccccc1)c1nc(C(=O)NCc2ccc(F)cc2)c(O)c(=O)[nH]1,-,MT-4,-,50% human serum,EC95,p24,>10 µM
CCCCN1C(=O)N(CCCC)[C@H](Cc2ccccc2)[C@H](O)[C@@H](O)[C@H]1Cc1ccccc1,RF,MT-2,-,-,EC50,hybridisation,<0.68 µM
O=C(NCc1ccc(F)cc1)c1nc(-c2cccs2)[nH]c(=O)c1O,-,MT-4,-,50% human serum,EC95,p24,>10 µM
Cc1cc([N+](=O)[O-])c(C)c2c1[nH]c1cc(Cl)ccc12,BaL,TZM-bl,-,-,EC50,luminescence,5.3 µM
Cc1cn([C@H]2C[C@H](N=[N+]=[N-])[C@@H](CO)O2)c(=O)[nH]c1=O,LAI,CEM + CEM TK-,-,-,EC50,RT activity,>100 µM
O=C1N(Cc2ccc(Cl)cc2)[C@H](Cc2ccccc2)[C@H](O)[C@@H](O)[C@@H](Cc2ccccc2)N1Cc1ccc(Cl)cc1,RF,MT-2,-,-,EC50,hybridisation,<4.5 µM
C[C@H](C[n+]1c[nH]c2c(N(C)C)nc(N)nc21)OCP(=O)(O)O,IIIB,MT-4,-,-,EC50,cytopathic effect / MTT,2.3 ± 0.2 µg/mL
Cc1cn([C@H]2C=C[C@@H](CO)O2)c(=O)[nH]c1=O,HXB2D,MT-2,-,-,EC50,XTT,8 µM
C1CNCCNCCCN[C@H]([C@@H]2CNCCCNCCNCCCN2)CNC1,IIIB,CEM,-,-,EC50,antigen,0.72 µM
CC(C)(C)NC(=O)[C@@H]1C[C@@H]2CCCC[C@@H]2CN1C[C@@H](O)[C@H](Cc1ccccc1)NC(=O)[C@@H](NC(=O)c1ccc2ccccc2n1)C(C)(C)S(C)(=O)=O,-,-,-,-,EC50,-,0.002 µM
Cc1cn([C@H]2C[C@H](N=[N+]=[N-])[C@@H](CO)O2)c(=O)[nH]c1=O,3TC-resistant (RT M184V),PBMC,RT-M184V,-,EC90,-,0.003 µM
c1ccc(CNCc2ccc(CN3CCCNCCNCCCNCC3)cc2)nc1,RF,-,-,-,EC50,-,0.006 µg/mL
Cc1cn([C@H]2C[C@H](N=[N+]=[N-])[C@@H](COP(=O)(O)OC[C@H]3CC[C@@H](n4cnc5c(N)ncnc54)O3)O2)c(=O)[nH]c1=O,LAV,PBMC,-,-,EC50,RT activity,0.00003 µM
Cc1ccc(-c2ccc3c(c2)C=C(C(=O)Nc2ccc(C[N+](C)(C)C4CCOCC4)cc2)CCC3)cc1,IIIB,MAGI + MAGI-CCR5,-,-,EC50,β-galactosidase,>20 µM
CCN(c1nc(F)ccc1NC(C)(C)C)C1CCN(C(=O)c2cc3cc(NC(=O)N4CCN(C)CC4)ccc3[nH]2)CC1,IIIB,MT-2,LPV-P31 resistant mutant,-,EC50,ATP,0.325 µM
NC1=Nc2c(ncn2CCC/C=C/P(=O)(O)O)C(=O)C1,RF,C8166,-,-,EC50,p24,12 µM
CCN(CC)c1ncnc2c1ncn2CCOCP(=O)(O)O,IIIB,CEM,-,-,EC50,cytopathic effect / MTT,>4 µg/mL
Nc1ncnc2c1ncn2CCOCP(=O)(O)O,RF,C8166,-,-,EC50,p24,1.5 µM
O=C1N(Cc2ccc(F)cc2)[C@H](Cc2ccccc2)[C@H](O)[C@@H](O)[C@@H](Cc2ccccc2)N1Cc1ccc2ccccc2c1,RF,MT-2,-,-,EC50,hybridisation,<1.1 µM
Nc1ncnc2c1ncn2CCOCP(=O)(O)O,HXB2D,MT-2,-,-,EC50,XTT,10 µM
Nc1ncnc2c1ncn2[C@H]1CC[C@@H](CO)O1,LAV,PBMC,-,-,EC90,RT activity,2.14 µM
CSc1ncccc1CN1CCN(C[C@@H](O)C[C@@H](Cc2ccccc2)C(=O)N[C@H]2c3ccccc3C[C@H]2O)[C@H](C(=O)NC(C)(C)C)C1,IIIB,MT-4,-,-,EC50,p24,<0.0156 µM
O=C1N(Cc2ccc(CO)cc2)[C@H](Cc2ccccc2)[C@H](O)[C@@H](O)[C@@H](Cc2ccccc2)N1Cc1ccc2ccccc2c1,RF,MT-2,-,-,EC50,hybridisation,<0.21 µM
COC(=O)N[C@H](C(=O)N[C@@H](Cc1ccccc1)[C@@H](O)CN(Cc1ccc(-c2ccccn2)cc1)NC(=O)[C@@H](NC(=O)OC)C(C)(C)C)C(C)(C)C,RF,MT-2,-,-,EC50,RT activity,0.00572 µM
Cc1cc(N)c(C)c2c1[nH]c1c(Cl)cccc12,BaL,TZM-bl,-,-,EC50,luminescence,12.1 µM
CN(C)CCNc1nc(N)nc2c1ncn2CCOCP(=O)(O)O,IIIB,MT-4,-,-,EC50,cytopathic effect / MTT,3.25 µg/mL

Repeating the first 4 entries:

structure | strain or isolate | cells | changes | conditions | endpoint | method | value
Cc1cc(C#Cc2ccccc2)cc(C)c1Oc1ccnc(NC2CCN(Cc3ccc(S(N)(=O)=O)cc3)CC2)n1 | IIIB | MT-4 | L100I | - | EC50 | MTT | >0.766 µM
Cc1cn([C@H]2C[C@H](N=[N+]=[N-])[C@@H](CO)O2)c(=O)[nH]c1=O | SF162 | Monocytes + Monocyte | - | - | EC50 | p24 / ELISA | 0.0011 µg/mL
CC(=O)O[C@@]12C[C@@H](C)[C@@]3(O)[C@@H](C=C(CO)C[C@]4(O)C(=O)C(C)=C[C@@H]34)[C@@H]1C2(C)C | IIIB | MT-4 | - | - | EC50 | cytopathic effect / MTT | 0.09 µg/mL
Cc1ccccc1CN1CCC(N=C2C=C(Cc3ccc(Cl)cc3Cl)NS(=O)(=O)N2)CC1 | IIIB | MT-4 | - | - | EC50 | MTT | 24.18 µM

An empty or dashed field is not shown. Neighbouring rows are from separate reports. a–b is a range or a potency band.